Laboratory results: article PMC12537208

Experiments:
[1] = test system: Fis-His6 (Klebsiella oxytoca); test: EMSA; settings: shift at 0.5 and 1.0 uM Fis (range 0-1.0 uM), 100 ng DNA, 8 mM MgCl2, 40 mM HEPES ([…], room temperature 20 min, recombinant protein, residues 1-98, protein details: C-terminal His6, probe letters rebuilt from the primers and the genome
IHF = test: EMSA; settings: shift at 0.05 and 0.1 uM IHF (range 0-0.1 uM), 100 ng DNA, 8 mM MgCl2, 40 mM HEPES ([…], room temperature 20 min, recombinant protein, probe letters rebuilt from the primers and the genome

“TCTCTCACTCGAAATTTAACAGGTTTTTCGTTTGTTTTTTAACAAAAAAGCGATGAGAAAGTGCTATTCCTTGTCTGTTTACTGGACATGAAAGACGATACGGTTTGCACAAATATTGCACGCCAATGGGTGCCTTATGTCAATCAAAAAAGTTTATATTTGATTTATGTTTTTTCATGTTATTGATTTTTATGGTTATTATTTTTGTTGGTTTTTTATTTTTTGCTATATGATTTTTTTTTGGAAATCAAATTGACTGGGGATGAGGTTCGAAGATAGACTATTGAAAGCAACGCTTAGTTATGCTTGTGTTGCTTATATGTTGCTTGTTTTGCGGTGTTTGCTTAGAGGCATCTCACGGTAAGCTGGCGGCATTTCTTTAGATCTTTAATTTCTTCTTCAAGAGAAGATTTTATGCGTGTGAACGTTCCTAATTCTCCAGGAGAGA (double strand) [aroX-npsA intergenic region probe]”: binds [1]; binds (IHF).

For at least one entry, the source does not settle the construct or the ends of the probe.
